Data as given in PubChem BioAssay AID1259414 (Drosophila RNAi Screening Center, 2018).
In all, the deposit lists about 24,000 reagents; shown is an unselected part of those with a known target gene and a result. Over the whole deposit, about 1,210 (5%) are marked active. 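Inactive calls also include excluded dsRNAs with several or no targets, genes unexpressed in JW18, and well A1, regardless of score.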

- Purpose: 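Host factors increasing or decreasing Wolbachia levels in cultured fly cells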 (primary screen)
- Cell system: Drosophila JW18 cells infected with Wolbachia
- Reagents: long dsRNA against Drosophila genes, 0.25 µg dsRNA per well of a 384-well plate
- Duration: 5 days
- Treatment: cells persistently infected with Wolbachia before knock-down; no added drug
- Measured: 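Automated imaging of bacterial rRNA staining divided by host cell count, reported as plate-normalised robust z-score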
- Direction: Wolbachia per cell robust z: higher = more Wolbachia per host cell than the plate typical
- Hit rule: 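Hit when robust z is 1.5 or more, or -1.5 or less, in at least two of three replicates; excludes dsRNAs with several or no targets, genes not expressed in JW18 and well A1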

target gene | DRSC id | Wolbachia per cell robust z, rep 1 | Wolbachia per cell robust z, rep 2 | Wolbachia per cell robust z, rep 3 | call
CG13171 | DRSC06299 | -1.03 | -0.728 | -0.746 | inactive
modSP | DRSC16726 | 0.412 | 0.118 | 0.625 | inactive
modSP | DRSC16857 | -0.583 | -0.652 | 0.352 | inactive
modSP | DRSC21489 | -1.06 | -1.56 | -0.745 | inactive
CG14238 | DRSC14732 | 0.872 | -1.75 | 0.915 | inactive
CG14238 | DRSC29545 | -2.29 | -0.48 | -0.653 | inactive
CG4866 | DRSC06899 | -0.0382 | 0.856 | 0.671 | inactive
CG2767 | DRSC15451 | 0.232 | -0.463 | -0.453 | inactive
CG2767 | DRSC26830 | -0.684 | -0.208 | -0.233 | inactive
dl | DRSC03521 | -1.19 | 0.78 | -0.193 | inactive
dl | DRSC29023 | 0.791 | 1.03 | 0.795 | inactive
dl | DRSC40753 | -0.247 | -2.86 | -0.379 | inactive
loqs | DRSC02997 | -0.629 | 0.18 | -0.365 | inactive
Nek2 | DRSC18124 | 0.685 | -4.63 | -0.157 | inactive
Nek2 | DRSC26714 | -1.91 | -0.304 | 0.181 | inactive
CG12391 | DRSC06147 | 0.863 | 0.224 | -0.112 | inactive
Piezo | DRSC03092 | -3.59 | -7.26 | 0.834 | active
Piezo | DRSC03391 | 1.01 | -0.0178 | 1.34 | inactive
CG9757 | DRSC16557 | -1.41 | -6.8 | -1.17 | inactive
CG9757 | DRSC21707 | 0.514 | -0.103 | 0.936 | inactive
CG9757 | DRSC25621 | -0.2 | 3.74 | 0.591 | inactive
Osi18 | DRSC12181 | 1.27 | 0.241 | -0.588 | inactive
hoe2 | DRSC00459 | -1.23 | -2.48 | 0.391 | inactive
Dic3 | DRSC06058 | -0.331 | 1.02 | 0.119 | inactive
DMAP1 | DRSC06044 | 0.716 | 1.47 | 2.14 | inactive
DMAP1 | DRSC26559 | 0.663 | 0.0767 | 0.784 | inactive
Shawl | DRSC02209 | -4.16 | -2.1 | -4.74 | inactive
Shawl | DRSC02748 | -1.13 | 0.33 | -1.82 | inactive
Shawl | DRSC24307 | 2.68 | 3.7 | 0.0466 | inactive
SkpE | DRSC19431 | -3.11 | 0.447 | -1.29 | inactive
Mocs1 | DRSC11225 | -2.45 | -1.52 | 0.785 | active
CG14631 | DRSC17792 | 0.522 | -4.1 | 0.238 | inactive
CG14631 | DRSC17941 | -1.36 | -2.2 | -0.813 | inactive
Grik | DRSC15846 | 0.339 | -0.137 | 0.598 | inactive
Grik | DRSC15847 | 0.259 | 0.369 | 0.72 | inactive
Grik | DRSC26067 | 1.1 | 1.13 | 0.623 | inactive
alpha-Man-Ic | DRSC21674 | -0.758 | 0.912 | 0.939 | inactive
alpha-Man-Ic | DRSC27509 | 1.81 | 0.625 | 0.409 | inactive
CG11425 | DRSC11657 | -1.55 | -1.34 | -0.342 | inactive
CG11425 | DRSC28400 | 0.079 | -0.459 | -0.767 | inactive
Efhc1.2 | DRSC06027 | -2.96 | 1 | 0.599 | inactive
Nlg4 | DRSC15109 | -1.08 | 0.411 | -0.0686 | inactive
Nlg4 | DRSC15700 | -0.83 | -0.163 | -0.755 | inactive
Nlg4 | DRSC22243 | -0.124 | -1.04 | -0.799 | inactive
Nlg4 | DRSC28785 | -0.653 | -1.04 | -0.319 | inactive
Nlg4 | DRSC29761 | -2.01 | -0.905 | -1.12 | inactive
Nlg4 | DRSC30022 | 0.03 | -0.0417 | 0.577 | inactive

Called active, of those listed so far:
target gene | DRSC id | Wolbachia per cell robust z, rep 1 | Wolbachia per cell robust z, rep 2 | Wolbachia per cell robust z, rep 3 | call
Piezo | DRSC03092 | -3.59 | -7.26 | 0.834 | active
Mocs1 | DRSC11225 | -2.45 | -1.52 | 0.785 | active
